Assay results published in ChEMBL document CHEMBL1221284, “Development of 2-pyrrolidinyl-N-methyl pyrimidones as potent and orally bioavailable HIV integrase inhibitors” (Bioorg Med Chem Lett, 2010).

How the values were obtained:
[1] = tested on: Human immunodeficiency virus 1; assay: Antiviral activity against HIV1 harboring integrase N155S mutant relative to wild type; format: functional
[2] = tested on: Human immunodeficiency virus 1; assay: Antiviral activity against HIV1 harboring integrase T125K and […] double mutant relative to wild type; format: functional

Compound: Cc1nnc(C(=O)NC(C)(C)c2nc(C(=O)NCc3ccc(F)cc3)c(O)c(=O)n2C)o1
- Ratio IC50 [1]: 10
- Ratio IC50 [2]: 8
